PubChem BioAssay AID1224833, University of Georgia – 2016

Purpose: 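Host factors restraining rotavirus as candidate antiviral genes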 (primary screen)
Cells: monkey MA104 kidney cells
Reagents: siRNA pool against human genes, 50 nM
Duration: 48 h knock-down before infection; read 24 h after infection
Challenge: infection with rotavirus strain RV3 two days after transfection; infectious dose for this stage not given
Detection: 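z-score of rotavirus antigen signal per well, from a fluorescent immunoassay, relative to non-targeting control wells on the same plate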
Reading the numbers: z-score vs non-targeting control: higher = more rotavirus replication than with non-targeting control
Rule for the call: In these data the active calls have z-score vs non-targeting control at about -1 or lower, or at about 1 or higher
Calls: active = z-score beyond 1 either way; inactive = z-score within 1 of zero
Here is a random part of about 12,000 reagents. Over the whole deposit, about 5,600 (46%) are marked active. 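Active calls cover z-scores past 1 in both directions, so they include lowered as well as raised rotavirus replication.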 A number with no mark means an inactive call.

SHLD1 (GeneID 149840): z-score vs non-targeting control = 1.37 (active)
MPZL1 (GeneID 9019): z-score vs non-targeting control = 0.294
TIMM8B (GeneID 26521): z-score vs non-targeting control = -0.383
ARL2BP (GeneID 23568): z-score vs non-targeting control = -0.554
VSNL1 (GeneID 7447): z-score vs non-targeting control = -1.37 (active)
DENND6B (GeneID 414918): z-score vs non-targeting control = 1.14 (active)
CILP2 (GeneID 148113): z-score vs non-targeting control = 0.27
RPL26 (GeneID 6154): z-score vs non-targeting control = -1.86 (active)
GPRIN2 (GeneID 9721): z-score vs non-targeting control = 1.68 (active)
PMPCB (GeneID 9512): z-score vs non-targeting control = 2.8 (active)
TMEM132E-DT (GeneID 400591): z-score vs non-targeting control = 0.466
APBB2 (GeneID 323): z-score vs non-targeting control = -0.76
PDLIM3 (GeneID 27295): z-score vs non-targeting control = 1.1 (active)
PCSK9 (GeneID 255738): z-score vs non-targeting control = 1.86 (active)
FAM181A (GeneID 90050): z-score vs non-targeting control = -0.413
CCDC102A (GeneID 92922): z-score vs non-targeting control = -2.14 (active)
SNRNP48 (GeneID 154007): z-score vs non-targeting control = -1.44 (active)
ZFYVE27 (GeneID 118813): z-score vs non-targeting control = -1.07 (active)
SNRNP27 (GeneID 11017): z-score vs non-targeting control = -0.345
KRTAP5-4 (GeneID 387267): z-score vs non-targeting control = 0.175
BEND2 (GeneID 139105): z-score vs non-targeting control = 0.0029
ZNF560 (GeneID 147741): z-score vs non-targeting control = 0.531
TIMM23 (GeneID 100287932): z-score vs non-targeting control = -1.77 (active)
TLCD3A (GeneID 79850): z-score vs non-targeting control = -0.958
VN1R4 (GeneID 317703): z-score vs non-targeting control = -0.731
DDX19B (GeneID 11269): z-score vs non-targeting control = -0.811
STX17 (GeneID 55014): z-score vs non-targeting control = -0.329
ZNF613 (GeneID 79898): z-score vs non-targeting control = 0.0662
RGS21 (GeneID 431704): z-score vs non-targeting control = 0.129
GPR75 (GeneID 10936): z-score vs non-targeting control = -1.51 (active)
ELOVL1 (GeneID 64834): z-score vs non-targeting control = -0.484
MFAP2 (GeneID 4237): z-score vs non-targeting control = 1.36 (active)

Reformatted: results already given
gene,z-score vs non-targeting control
SHLD1 (GeneID 149840),1.37 (active)
MPZL1 (GeneID 9019),0.294
TIMM8B (GeneID 26521),-0.383
ARL2BP (GeneID 23568),-0.554
